Measured values from several laboratories, pooled; numbers as filed in NIAID ChemDB.

Shared fields: whole-cell or culture tests; organism: HIV-1

ECn is the concentration giving n% inhibition of infection, replication or growth. Blank or dashed fields: not listed here. Conditions beyond the fields shown may differ between rows.

| compound | cells | read by | conditions | read-out | changes | strain | value |
|---|---|---|---|---|---|---|---|
| CC(C)=CCN1Cc2cc(Cl)cc3[nH]c(=S)n(c23)C[C@@H]1C | CEM + CEM-SS | cytopathic effect / MTT | - | EC50 | - | LAV | 0.148 µM |
| CC(C)=CCN1Cc2cc(Cl)cc3[nH]c(=S)n(c23)C[C@@H]1C | CEM | syncytia | - | EC50 | RT-Y181C | IIIB E-EBU(RT-Y181C) | ≥5 µg/mL |
| CCCc1cc(=O)oc2c3c(c4c(c12)OC(C)(C)C=C4)O[C@H](C)[C@@H](C)[C@@H]3O | CEM + CEM-SS | XTT | - | EC50 | RT-D67N K70R Y181C T215Y K219Q | NL4-3(RT-4XAZT+Y181C) | 0.01 µM |
| Cc1cn([C@H]2C[C@H](N=[N+]=[N-])[C@@H](CO)O2)c(=O)[nH]c1=O | C8166 | MTT | - | EC50 | - | MN | 0.00335 µM |
| COc1cc([N+](=O)[O-])ccc1NC(=O)CSc1nnnn1-c1c(C)cc(C)cc1C | MT-4 | p24 | - | EC95 | - | - | <10 µM |
| O=C1N(Cc2ccc(CO)cc2)[C@H](Cc2ccccc2)[C@H](O)[C@@H](O)[C@@H](Cc2ccccc2)N1Cc1ccc(CO)cc1 | MT-2 | virus yield | - | EC50 | - | RF | <0.15 µM |
| C/C=C/CSc1cc(NC(=S)c2ccsc2C)ccc1Cl | CEM + CEM-SS | XTT | - | EC50 | - | IIIB | 0.05 µM |
| CC(C)CN(C[C@@H](O)[C@H](Cc1ccccc1)NC(=O)[C@H](CC(N)=O)NC(=O)c1ccc2ccccc2n1)C(=O)NC(C)(C)C | MT-4 | p24 | - | EC95 | PR-I84V | NL4-3 | 0.4 µM |
| CC(C)=CCOc1cc(NC(=S)c2ccoc2C)ccc1Cl | MOLT | cytopathic effect | - | EC50 | - | HE | 0.008 µg/mL |
| CC(C)CN(C[C@@H](O)[C@H](Cc1ccccc1)NC(=O)O[C@H]1CCO[C@H]2OCC[C@H]21)S(=O)(=O)c1ccc2nc(NC3CC3)sc2c1 | MT-4 | p24 / luminescence | - | EC50 | L10F M46I I54V V82A | NL4-3 | 0.052 µM |
| COC(=O)[C@H](C)NP(=O)(OC[C@@H]1C=C[C@H](n2cc(C)c(=O)[nH]c2=O)O1)Oc1ccc(Br)cc1 | PBMC | p24 | - | EC50 | RT-Y188L | Y270-7 NNRTI-resistant clinical isolate | 0.009 µM |
| CC(C)(C)NC(=O)[C@@H]1C[C@@H]2CCCC[C@@H]2CN1C[C@@H](O)[C@H](Cc1ccccc1)NC(=O)[C@H](CC(N)=O)NC(=O)c1ccc2ccccc2n1 | MT-4 | p24 | - | EC95 | PR-L63P V82T I84V | NL4-3 | 0.05 µM |
| COC(=O)N[C@H](C(=O)N[C@@H](Cc1ccccc1)[C@@H](O)CN(Cc1ccc(-c2ccccn2)cc1)NC(=O)[C@@H](NC(=O)OC)C(C)(C)C)C(C)(C)C | MT-4 | p24 / luminescence | - | EC50 | L10I L33I M36I M46I I54V K55R I62V L63P A71V G73S V82T L90M I93L | NL4-3 | >1 µM |
| CC(=O)c1sccc1NC(=O)CSc1nnnn1-c1c(C)cc(C)cc1C | MT-4 | p24 | - | EC50 | - | - | <10 µM |
| COC(=O)N[C@H](C(=O)N[C@@H](Cc1ccccc1)[C@@H](O)CN(Cc1ccc(-c2ccccn2)cc1)NC(=O)[C@@H](NC(=O)OC)C(C)(C)C)C(C)(C)C | PBMC | p24 / luminescence | - | EC50 | - | 92UG037 | 0.0038 µM |
| O=c1[nH]cnc2c1ncn2[C@H]1CC[C@@H](CO)O1 | MT-4 | p24 | - | EC50 | - | IIIB)(ddC | 25.3 µM |
| Cc1cccc(Cl)c1-n1nnnc1SCC(=O)Nc1ccccc1[N+](=O)[O-] | MT-4 | p24 | - | EC95 | - | - | <10 µM |
| Cc1cn([C@@H]2O[C@H](CO[Si](C)(C)C(C)(C)C)C3(OS(=O)(=O)C=C3N)[C@H]2O[Si](C)(C)C(C)(C)C)c(=O)n(C)c1=O | CEM | cytopathic effect | - | EC50 | RT-V179D | IIIB | 0.097 µg/mL |
| Cc1cc(C#N)cc(C)c1Oc1nc(Nc2ccc(C#N)cc2)nc(N)c1Br | PBMC | absorbance | - | EC50 | ZA-resistant mutant | 92BR014 | 0.0009 µM |
| O=C(N[C@H]1c2ccccc2OC[C@H]1O)[C@H](Cc1cccnc1)C[C@H](O)CN1CCN(Cc2ccn(-c3ccccc3C(F)(F)F)c2)C[C@H]1C(=O)NCC(F)(F)F | MT-4 | p24 | - | EC50 | PR-L10I M46I I54V Q58E L63P I64V V77I V82F I84V L90M I93L | K-60C Clinical isolate | <0.5 µM |
| Cc1cc(Br)cc(C)c1-n1nnnc1SCC(=O)Nc1ccccc1Cl | MT-4 | p24 | - | EC50 | - | - | <10 µM |
| CCc1c(Sc2ccccn2)n(COCc2ccccc2)c(=O)[nH]c1=O | CEM + CEM-SS | cytopathic effect / XTT | - | EC50 | - | IIIB | 0.02 µM |
| CC(Sc1nnnn1-c1cccc2ccccc12)C(=O)Nc1ccccc1[N+](=O)[O-] | MT-4 | p24 | - | EC95 | - | - | <10 µM |
| O=C(N[C@H]1c2ccccc2OCC1O)[C@H](Cc1cccnc1)C[C@H](O)CN1CCN(Cc2ccc(-c3ccccc3)o2)C[C@H]1C(=O)NCC(F)(F)F | MT-4 | p24 | - | EC95 | PR-L10I N37S R41K M46I I54V I62V L63P A71V V77I V82A L90M I93L | Q-60C Clinical isolate | ≤0.008 µM |
| CCc1cc(NCc2nc3c(Cl)ccc(Cl)c3o2)c(=O)[nH]c1C | MT-4 | p24 | - | EC50 | - | IIIB | <0.025 µM |
| CCOCn1c(Cc2cc(C)cc(C)c2)c(CC)c(=O)[nH]c1=O | CEM | syncytia | - | EC50 | RT-Y181C | IIIB PYR(RT-Y181C) | 0.37 µg/mL |
| Cn1c2ccccc2c2c1cc(C#N)c(=O)n2-c1ccc([N+](=O)[O-])cc1 | HeLa | luciferase | - | EC50 | RT-M184V | NRTI resistant | 0.081 µM |
| CC(C)CN(C[C@@H](O)[C@H](Cc1ccccc1)NC(=O)O[C@H]1CCOC1)S(=O)(=O)c1ccc(N)cc1 | MT-4 | p24 / luminescence | - | EC50 | - | NL4-3 | 0.037 µM |
| Cc1cn([C@H]2C[C@H](N=[N+]=[N-])[C@@H](CO)O2)c(=O)[nH]c1=O | PBMC | RT activity | - | EC50 | - | CLADE D | 0.1 µM |
| Fc1cccc(F)c1C1SCc2nc3ccccc3n21 | CEM + CEM-SS | cytopathic effect / XTT | - | EC50 | - | 205 | 0.9 µM |
| CC(C)=CCN1Cc2cc(Cl)cc3[nH]c(=S)n(c23)C[C@@H]1C | HT4 + HT4 LacZ-1 | plaque count | - | EC50 | RT-L74V | HXB2 | 0.16 µM |
| Cc1cn([C@H]2C[C@H](N=[N+]=[N-])[C@@H](CO)O2)c(=O)[nH]c1=O | HeLa | luciferase | - | EC50 | RT-A62T V118I M184V | Recombinant | 0.0304 µM |
| CC(C)c1nc(CN(C)C(=O)N[C@H](C(=O)N[C@@H](Cc2ccccc2)C[C@H](O)[C@H](Cc2ccccc2)NC(=O)OCc2cncs2)C(C)C)cs1 | MT-4 | p24 | - | EC50 | PR-D30N N88D | NL4-3 | <0.01 µM |
| CCCc1cc(=O)oc2c3c(c4c(c12)OC(C)(C)C=C4)O[C@@H](C)[C@H](C)[C@@H]3O | CEM + CEM-SS | XTT | - | EC50 | RT-V108I | Thiazolobenzimidazole-resistant (RT V108I) | 4.4 µM |
| CCOCn1c(Sc2ccccc2)c(CC)c(=O)[nH]c1=S | CEM | syncytia | - | EC50 | RT-K103N | IIIB TIBO R82913-resistant (RT K103N) | 0.77 µg/mL |
| CN[C@H]1CO[C@@H]2OCC[C@H](OC(=O)N[C@@H](Cc3ccccc3)[C@H](O)CN(CC(C)C)S(=O)(=O)c3ccc4nc(NC5CC5)sc4c3)[C@@H]21 | MT-4 | p24 / luminescence | - | EC50 | L10I I54V K20R L24I V32I L33F M36I M46I I54M L63P K70Q V82I I84V L89M | NL4-3 | 0.038 µM |
| CCc1cc(NCc2nc3c(Cl)ccc(Cl)c3o2)c(=O)[nH]c1C | CEM | syncytia | - | EC50 | RT-Y181C | IIIB PYR(RT-Y181C) | ≥5 µg/mL |
| Cc1cc(C)c(Nc2ccnc(Nc3ccc(C#N)cc3)n2)c(C)c1 | PBMC | absorbance | - | EC50 | - | NL4-3 | 0.0005 µM |
| Cc1cc(C)c(-n2nnnc2SCC(=O)Nc2ccc(Cl)cc2F)c(C)c1 | MT-4 | p24 | - | EC50 | - | - | <10 µM |
| CCc1cc(NCc2nc3c(C)ccc(C)c3o2)c(=O)[nH]c1C | MT-4 | p24 | - | EC50 | - | WMJ-2 | <0.1 µM |
| CCN[C@H]1CO[C@@H]2OCC[C@H](OC(=O)N[C@@H](Cc3ccccc3)[C@H](O)CN(CC(C)C)S(=O)(=O)c3ccc4nc(NC5CC5)sc4c3)[C@@H]21 | MT-4 | p24 / luminescence | - | EC50 | - | NL4-3 | 0.0033 µM |
| COc1ccc(NC(=O)CSc2nnnn2-c2c(C)cc(C)cc2C)c(C)c1 | MT-4 | p24 | - | EC50 | - | - | <10 µM |
| Cc1cn([C@H]2C[C@H](N=[N+]=[N-])[C@@H](CO)O2)c(=O)[nH]c1=O | PBMC | p24 | - | EC50 | RT-K20R D67N K70R Y188L T215F K219Q | C467-4 Clinical isolate ZDV-resistant | 3.2 µM |
| Cc1ccnc2c1NC(=O)c1cccnc1N2C1CC1 | PBMC | RT activity | - | EC50 | - | CLADE B | 0.07 µM |
| Cc1cn([C@H]2C[C@H](N=[N+]=[N-])[C@@H](CO)O2)c(=O)[nH]c1=O | MT-4 | MTT | - | EC50 | - | K103N (subtype B) | 0.0005 µg/mL |
| CC(C)CN(C[C@@H](O)[C@H](Cc1cc(F)cc(F)c1)NC(=O)O[C@H]1CCO[C@H]2OCC[C@H]21)S(=O)(=O)c1ccc2nc(NC(C)C)sc2c1 | PBMC | p24 / luminescence | clinical isolate, multidrug-resistant | EC50 | L10I K14R L33I M36I M46I F53I K55R I62V L63P A71V G73S V82A L90M I93L | Clinical isolate | 0.0022 µM |
| C/C=C/CSc1cc(NC(=S)c2ccsc2C)ccc1Cl | AA5 | cytopathic effect / XTT | - | EC50 | - | IIIB | 0.2 µM |
| Cc1occc1C(=S)Nc1ccc(Cl)c(/C=N/OC(C)(C)C)c1 | CEM | cytopathic effect | - | EC50 | - | - | 0.02 µg/mL |
| c1cc(CN2CCCNCCNCCCNCC2)ccc1CN1CCCNCCNCCCNCC1 | MT-4 | MTT | - | EC50 | - | UG92029 (subtype A) | 0.008 µg/mL |
| Cc1occc1C(=S)Nc1ccc(Cl)c(/C=N/OC(C)(C)C)c1 | CEM + CEM-SS | cytopathic effect / XTT | - | EC50 | RT-Y181C | UC82-R (RT-Y181C) | 1.1 µM |
| Cc1ccnc2c1NC(=O)c1cccnc1N2C1CC1 | CEM | syncytia | - | EC50 | RT-E138K | IIIB | 0.065 ± 0.007 µM |
| Cc1ccccc1-n1ccc(CN2CCN(C[C@@H](O)C[C@@H](Cc3cccnc3)C(=O)N[C@H]3c4ccccc4OC[C@H]3O)[C@H](C(=O)NCC(F)(F)F)C2)c1 | MT-4 | p24 | - | EC50 | PR-L10I M36I N37D M46I R57K L63P A71V G73S I84V L90M I93L | V-18C Clinical isolate | <0.031 µM |
| O=C(CSc1nnnn1-c1cccc(Cl)c1Cl)Nc1ccccc1[N+](=O)[O-] | MT-4 | p24 | - | EC95 | - | - | <10 µM |
| CCn1c(=O)c(C)cn([C@@H]2O[C@H](CO[Si](C)(C)C(C)(C)C)C3(OS(=O)(=O)C=C3N)[C@H]2O[Si](C)(C)C(C)(C)C)c1=O | CEM | syncytia | - | EC50 | RT-Y188H | IIIB HEPT-resistant (RT Y188H) | >50 µg/mL |
| C[C@H](Cn1cnc2c(N)ncnc21)OCP(=O)(O)O | HeLa | luciferase | - | EC50 | RT-M41L A62V S68N G112S M184V | Recombinant | 0.278 µM |
| Cc1ccc(-n2ccc(CN3CCN(C[C@@H](O)C[C@@H](Cc4cccnc4)C(=O)N[C@H]4c5ccccc5OC[C@H]4O)[C@H](C(=O)NCC(F)(F)F)C3)c2)cc1 | MT-4 | p24 | - | EC50 | - | NL4-3 WT | <0.015 µM |

4 of the rows above, restated:

{"compound": "CC(C)=CCOc1cc(NC(=S)c2ccoc2C)ccc1Cl", "cells": "MOLT", "read by": "cytopathic effect", "read-out": "EC50", "strain": "HE", "value": "0.008 µg/mL"}
{"compound": "CC(C)CN(C[C@@H](O)[C@H](Cc1cc(F)cc(F)c1)NC(=O)O[C@H]1CCO[C@H]2OCC[C@H]21)S(=O)(=O)c1ccc2nc(NC(C)C)sc2c1", "cells": "PBMC", "read by": "p24 / luminescence", "conditions": "clinical isolate, multidrug-resistant", "read-out": "EC50", "changes": "L10I K14R L33I M36I M46I F53I K55R I62V L63P A71V G73S V82A L90M I93L", "strain": "Clinical isolate", "value": "0.0022 µM"}
{"compound": "CC(C)=CCN1Cc2cc(Cl)cc3[nH]c(=S)n(c23)C[C@@H]1C", "cells": "CEM", "read by": "syncytia", "read-out": "EC50", "changes": "RT-Y181C", "strain": "IIIB E-EBU(RT-Y181C)", "value": "≥5 µg/mL"}
{"compound": "CCn1c(=O)c(C)cn([C@@H]2O[C@H](CO[Si](C)(C)C(C)(C)C)C3(OS(=O)(=O)C=C3N)[C@H]2O[Si](C)(C)C(C)(C)C)c1=O", "cells": "CEM", "read by": "syncytia", "read-out": "EC50", "changes": "RT-Y188H", "strain": "IIIB HEPT-resistant (RT Y188H)", "value": ">50 µg/mL"}